Results of unrelated studies side by side (data: NIAID ChemDB).

Common to all: tests in culture; organism: Hepatitis C virus

Blank or dashed fields: not listed here. Fold resistance has wild type as its base. Conditions beyond the fields shown may differ between rows. ECn: concentration that inhibits the pathogen or its effect by n%. Inhibition is in % at the dose shown (toxicity tests: loss of growth or viability).

smiles	read-out	dose	mutations	cells	read by	strain or isolate	value
CNC(=O)c1c(-c2ccc(F)cc2)oc2cc(N(CCO)S(C)(=O)=O)c(C3CC3)cc12	EC50	-	-	Huh7	luciferase	3a	0.0298 µM
C=CC(=O)NCC(=O)N1C[C@H](Oc2nccc3ccc(Br)cc23)C[C@H]1C(=O)N[C@]1(C(=O)NS(=O)(=O)C2CC2)C[C@H]1C=C	EC50	-	-	-	luciferase	1b R155K	0.815 µM
C[C@@]1(O)[C@H](O)[C@@H](CO)O[C@H]1n1cnc2c(N)ncnc21	EC50	-	-	Huh7	luciferase	3a	0.2993 µM
CC[C@H]1C[C@]1(NC(=O)[C@@H]1C[C@@H]2CN1C(=O)[C@H](C(C)(C)C)NC(=O)OCC(C)(C)CCCCc1cccc3c1CN(C3)C(=O)O2)C(=O)NS(=O)(=O)C1CC1	EC50	-	-	Huh7.5	antigen	K3a/650	2.275 µM
CC(C)(CO)C(=O)SCCOP(=O)(NCc1ccccc1)OC[C@H]1O[C@@H](n2cnc3c(=O)[nH]c(N)nc32)[C@](C)(O)[C@@H]1O	fold resistance	-	T260A	Replicon cells	replicon	GT1a	1.7
O=C1c2c(O)cc(O)cc2O[C@H](c2ccc(O)c(O)c2)[C@H]1O	inhibition	0.1 µM	-	Huh7	PCR	G1	32%
CC(C)OC(=O)[C@H](C)N[P@](=O)(OC[C@H]1O[C@@](C#N)(c2ccc3c(N)ncnn23)[C@](C)(O)[C@@H]1OC(=O)C(C)C)Oc1ccccc1	fold resistance	-	M423T	1C	luciferase	1b Con1	0.76
C[C@@]1(O)[C@H](O)[C@@H](CO)O[C@H]1n1cnc2c(N)ncnc21	EC50	-	Y93N	Huh7.5	luciferase / reporter gene	genotype 1b	0.0289 µM
Clc1ccc(Cn2c(CN3CCCC3)nc3ccccc32)cc1	inhibition	20 µM	-	Huh7	luciferase / replicon	1b Con1	72.57%
C[C@@]1(O)[C@H](O)[C@@H](CO)O[C@H]1c1coc2c(N)ncnc12	inhibition	2 µg/mL	-	HepG2-5B	MTT	-	0%
CC(=O)Nc1ccc(-c2ccc(Cl)cc2)c(COc2ccc(-c3nc4cc(C(=O)O)ccc4n3C3CCCCC3)cc2)c1	EC50	-	-	Huh7	luciferase	3a	0.6103 µM
CC[C@H](C)C(=O)O[C@H]1CC=CC2C=C[C@H](C)[C@H](CC[C@@H]3C[C@@H](O)CC(=O)O3)[C@H]21	EC90	-	-	Huh 5-2	luciferase / replicon	-	4.7 µM
COc1ccc2c(O[C@@H]3C[C@H]4C(=O)N[C@]5(C(=O)NS(=O)(=O)C6CC6)C[C@H]5/C=C\CCCCN(C)C(=O)[C@@H]4C3)cc(-c3nc(C(C)C)cs3)nc2c1C	EC50	-	-	Huh7.5	antigen	JCH2	0.101 µM
O=c1c(O)c(-c2ccc(O)cc2)oc2cc(O)cc(O)c12	inhibition	1 µM	-	Huh7	PCR	G1	43%
COC(=O)N[C@H](C(=O)N1CCC[C@H]1c1ncc(-c2ccc(-c3ccc(-c4cnc([C@@H]5CCCN5C(=O)[C@@H](NC(=O)OC)C(C)C)[nH]4)cc3)cc2)[nH]1)C(C)C	inhibition	0.00004 µM	-	Huh7	luciferase / replicon	1b Con1	86.67%

A second listing of 2 rows from above:

smiles	read-out	dose	mutations	cells	read by	strain or isolate	value
CC(C)(CO)C(=O)SCCOP(=O)(NCc1ccccc1)OC[C@H]1O[C@@H](n2cnc3c(=O)[nH]c(N)nc32)[C@](C)(O)[C@@H]1O	fold resistance	-	T260A	Replicon cells	replicon	GT1a	1.7
Clc1ccc(Cn2c(CN3CCCC3)nc3ccccc32)cc1	inhibition	20 µM	-	Huh7	luciferase / replicon	1b Con1	72.57%